Drawing on article PMC4191344, “Identification and characterization of Aβ peptide interactors in Alzheimer’s disease by structural approaches” (Frontiers in Aging Neuroscience, 2014), this text covers stoichiometry N for 1 substance.

For this test, the target named is Amyloid-beta 1-40 peptide. Put plainly: SDS-PAGE and Western blot for SDS-resistant multimers; Aβ aged for 72 h in the same buffer; tris-tricine SDS-PAGE. A general note: Immunoblotting shows a protein as a band on a membrane.

What is called stoichiometry N is the number of molecules, sites or subunits per partner or assembly. Amyloid-beta 1-40 peptide came in with a stoichiometry N of 2.
